Measurements reported in patent publication US4383114A, “Adenosine deaminase resistant antiviral purine arabinonucleosides” (priority 1981, dated 1983).

Tested on: Herpes simplex virus, type 1, strain HS-123
Test: chemotherapy experiment against lethal HSV-1 infections in mice
Conditions: for Mortality: No. Dead/Total No. of Mice / Mortality %: 21 days; for Mortality %: p << 0.0005 (Table 3)

## Nc1ncnc2c1ncn2[C@@H]1O[C@H](CO)[C@@H](O)[C@@H]1O [ara-A, reference compound]
Ara-A 125 mg/kg/day + virus
  Avg. Body Wt. on Day 0: 20 gm
  Avg. Body Wt. on Day 7: 23.4 gm
  Avg. Body Wt. on Day 14: 25.9 gm
  Avg. Body Wt. on Day 21: 28.2 gm
  Mortality: No. Dead/Total No. of Mice: 0/10
  Mortality %: 0%
Ara-A 250 mg/kg/day + virus
  Avg. Body Wt. on Day 0: 19.9 gm
  Avg. Body Wt. on Day 7: 20.3 gm
  Avg. Body Wt. on Day 14: 23.1 gm
  Avg. Body Wt. on Day 21: 25.9 gm
  Mortality: No. Dead/Total No. of Mice: 1/10
  Mortality %: 10%
Ara-A 250 mg/kg/day + virus, of 10 mice
  Death Pattern, deaths on day 7 post-virus inoculation: 1
Ara-A 250 mg/kg/day i.p. qd 7 days, HSV-1 infected, dying animals only
  Mean Survival Time: 7.0 days
